Results published in patent US6602664B2 (priority 1998, dated 2003).
Several values for one entry are separate records, joined by “and”; a condition that tells them apart may be missing. Equal values may be shown once. Read-outs that look alike come from different tables or passages of the source.

Tested on: HIV-1/LAI
Format: cell-based
[1] = HIV-1 infected PBM cells, reverse transcriptase region

Molecule | Week (full mutation first observed on passage) (virus cultured in CEM cells) | Week (full mutation first observed on passage) (human PBM cells) | Week (mixed mutation first observed on passage) (human PBM cells) | mutation selected / induced in HIV-1 | mutation selected / induced in HIV-1 [1]
Nc1nc(=O)n([C@H]2C=C[C@@H](CO)O2)cc1F [L-D4FC, 2′,3′-didehydro-2′,3′-dideoxy-5-fluorocytidine] | 11 Week and 17 Week | – | – | – | –
Cc1cn([C@H]2C[C@H](N=[N+]=[N-])[C@@H](CO)O2)c(=O)nc1N [CS-092, 3′-azido-2′,3′-deoxy-5-methylcytidine] | – | 18 Week | 6 Week | – | –
(−)-α-2′,3′-dideoxy-3′-thia -5-fluorocytidine [(−)-FTC] | – | 3 Week | 2 Week | – | –
Nc1nc(=O)n([C@H]2CS[C@@H](CO)O2)cc1F (racemic) [(−) and racemic FTC, 2′,3′-dideoxy-3′-thia-5-fluorocytidine] | – | – | – | VI 84 | –
CC(C)CN(C[C@@H](O)[C@H](Cc1ccccc1)NC(=O)O[C@H]1CCOC1)S(=O)(=O)c1ccc(N)cc1 [VX-478, (S)-tetrahydrofuran-3-yl-N-[(1S,2R)-3-[N-[(4-aminophenyl)sulfonyl]-N-isobutylamino]-1-benzyl-2-hydroxypropyl]carbamate] | – | 10 Week | 8 Week | – | –
Cc1c(O)cccc1C(=O)N[C@@H](CSc1ccccc1)[C@H](O)CN1C[C@H]2CCCC[C@H]2C[C@H]1C(=O)NC(C)(C)C (relative stereo) [Nelfinavir, [3S-[2(2S*,3S*),3-alpha,4-a-beta,8a-beta-]]-N-(1,1-dimethylethyl)decahydro-2-)2-hydroxy-3-[(3-hydroxy-2-methylbenzoyl)amino]-4-(phenylthio)butyl]-3-isoquinolincarboxamide mono-methanesulfonate] | – | – | 5 Week | – | –
Nc1nc(=O)n([C@H]2CC[C@@H](CO)O2)cc1F [L-FddC, β-L-5-fluoro-2′,3′-dideoxycytidine] | – | 8 Week | 5 Week | – | VI 84
[N-]=[N+]=N[C@H]1C[C@H](n2ccc(=O)[nH]c2=O)O[C@@H]1CO [CS-87, 3′-Azido-2′,3′-dideoxyuridine] | – | – | 8 Week | – | transient mutation in HIV-1 at the 70th codon (K to R; i.e., lysine to arginine)
